Test results taken from paper PMC3849439, “Peptides Corresponding to the Predicted Heptad Repeat 2 Domain of the Feline Coronavirus Spike Protein Are Potent Inhibitors of Viral Infection” (PLoS ONE, 2013).
The source's definition of the ratio is not given here.

test system: Feline coronavirus type II NTU156 strain; details: relates CC50 (fcwf-4, MTT) to IC50 (plaque reduction)

Row | SMILES | Selectivity index (SI)
1 | CC[C@H](C)[C@H](NC(=O)[C@H](CC(N)=O)NC(=O)[C@H](CC(=O)O)NC(=O)[C@@H](NC(=O)[C@H](CC(C)C)NC(=O)[C@@H](NC(=O)[C@H](C)NC(=O)[C@H](CC(C)C)NC(=O)[C@H](CCC(=O)O)NC(=O)[C@@H](NC(=O)[C@@H](NC(=O)[C@@H](NC(=O)[C@H](CC(N)=O)NC(=O)[C@H](Cc1c[nH]cn1)NC(=O)[C@H](CC(C)C)NC(=O)[C@H](CCCCN)NC(=O)[C@H](CCC(=O)O)NC(=O)[C@H](CO)NC(=O)[C@H](CCCNC(=N)N)NC(=O)[C@H](Cc1ccccc1)NC(=O)[C@H](CCC(=O)O)NC(=O)[C@H](CC(C)C)NC(=O)[C@H](CC(=O)O)NC(=O)[C@H](CC(=O)O)NC(=O)[C@@H](NC(=O)[C@H](CCC(=O)O)NC(=O)CNC(=O)[C@@H](NC(=O)[C@H](CC(C)C)NC(=O)[C@H](CC(N)=O)NC(=O)[C@H](CC(C)C)NC(=O)[C@H](Cc1ccc(O)cc1)NC(=O)[C@@H](NC(=O)[C@H](C)NC(=O)[C@H](CC(N)=O)NC(=O)[C@@H](N)Cc1ccccc1)[C@@H](C)O)[C@@H](C)O)[C@@H](C)CC)[C@@H](C)O)[C@@H](C)O)C(C)C)[C@@H](C)CC)[C@@H](C)CC)C(=O)O [FP3] | ≧14.07
2 | CC[C@H](C)[C@H](NC(=O)[C@H](C)NC(=O)[C@H](CC(C)C)NC(=O)[C@H](CCC(=O)O)NC(=O)[C@@H](NC(=O)[C@@H](NC(=O)[C@@H](NC(=O)[C@H](CC(N)=O)NC(=O)[C@H](Cc1c[nH]cn1)NC(=O)[C@H](CC(C)C)NC(=O)[C@H](CCCCN)NC(=O)[C@H](CCC(=O)O)NC(=O)[C@H](CO)NC(=O)[C@H](CCCNC(=N)N)NC(=O)[C@H](Cc1ccccc1)NC(=O)[C@H](CCC(=O)O)NC(=O)[C@H](CC(C)C)NC(=O)[C@H](CC(=O)O)NC(=O)[C@H](CC(=O)O)NC(=O)[C@@H](NC(=O)[C@H](CCC(=O)O)NC(=O)CNC(=O)[C@@H](NC(=O)[C@H](CC(C)C)NC(=O)[C@H](CC(N)=O)NC(=O)[C@H](CC(C)C)NC(=O)[C@H](Cc1ccc(O)cc1)NC(=O)[C@@H](NC(=O)[C@H](C)NC(=O)[C@H](CC(N)=O)NC(=O)[C@@H](N)Cc1ccccc1)[C@@H](C)O)[C@@H](C)O)[C@@H](C)CC)[C@@H](C)O)[C@@H](C)O)C(C)C)C(=O)N[C@@H](CC(C)C)C(=O)N[C@H](C(=O)N[C@@H](CC(=O)O)C(=O)N[C@@H](CC(N)=O)C(=O)N[C@H](C(=O)N[C@@H](CC(N)=O)C(=O)N[C@@H](CC(N)=O)C(=O)N[C@H](C(=O)N[C@@H](CC(C)C)C(=O)N[C@H](C(=O)N[C@@H](CC(N)=O)C(=O)N[C@@H](CC(C)C)C(=O)O)C(C)C)[C@@H](C)O)[C@@H](C)CC)[C@@H](C)CC [FP4] | ≧111.11
3 | CC[C@H](C)[C@H](NC(=O)[C@H](C)NC(=O)[C@H](CC(C)C)NC(=O)[C@H](CCC(=O)O)NC(=O)[C@@H](NC(=O)[C@@H](NC(=O)[C@@H](NC(=O)[C@H](CC(N)=O)NC(=O)[C@H](Cc1c[nH]cn1)NC(=O)[C@H](CC(C)C)NC(=O)[C@H](CCCCN)NC(=O)[C@H](CCC(=O)O)NC(=O)[C@H](CO)NC(=O)[C@H](CCCNC(=N)N)NC(=O)[C@H](Cc1ccccc1)NC(=O)[C@H](CCC(=O)O)NC(=O)[C@H](CC(C)C)NC(=O)[C@H](CC(=O)O)NC(=O)[C@H](CC(=O)O)NC(=O)[C@@H](NC(=O)[C@H](CCC(=O)O)NC(=O)CNC(=O)[C@@H](NC(=O)[C@H](CC(C)C)NC(=O)[C@H](CC(N)=O)NC(=O)[C@H](CC(C)C)NC(=O)[C@H](Cc1ccc(O)cc1)NC(=O)[C@@H](NC(=O)[C@H](C)NC(=O)[C@H](CC(N)=O)NC(=O)[C@@H](N)Cc1ccccc1)[C@@H](C)O)[C@@H](C)O)[C@@H](C)CC)[C@@H](C)O)[C@@H](C)O)C(C)C)C(=O)N[C@@H](CC(C)C)C(=O)N[C@H](C(=O)N[C@@H](CC(=O)O)C(=O)N[C@@H](CC(N)=O)C(=O)N[C@H](C(=O)N[C@@H](CC(N)=O)C(=O)N[C@@H](CC(N)=O)C(=O)N[C@H](C(=O)N[C@@H](CC(C)C)C(=O)N[C@H](C(=O)N[C@@H](CC(N)=O)C(=O)N[C@@H](CC(C)C)C(=O)N[C@@H](CCC(=O)O)C(=O)N[C@@H](Cc1c[nH]c2ccccc12)C(=O)N[C@@H](CC(C)C)C(=O)N[C@@H](CC(N)=O)C(=O)N[C@@H](CCCNC(=N)N)C(=O)N[C@H](C(=O)N[C@@H](CCC(=O)O)C(=O)O)[C@@H](C)CC)C(C)C)[C@@H](C)O)[C@@H](C)CC)[C@@H](C)CC [FP5] | ≧150.37
